# Test results taken from patent publication US12064425B2, “Compositions and methods for targeting a viral infection” (priority 2018, dated 2024).
# Molecular target: HIV-1 Env (Human immunodeficiency virus type 1, UniProt Q71014)
# Test: β-galactosidase α-complementation cell-cell fusion assay, HIV-1 Env
# Conditions: read-out: IC50 (μM), cell-cell fusion assay, wild type Env; S2C3; 92UG037.8 HIV-1 Env wild type
smiles,measurement,value
Nc1c2c([n+](CCCCCCCCCC[n+]3c4c(c(N)c5ccccc53)CCC4)c3ccccc13)CCC2 [Compound S2C3],IC50,4.4 µM
